# Laboratory results: PubChem BioAssay AID1224833 (University of Georgia, 2016)
# Aim: 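Human genes whose knock-down alters rotavirus replication in monkey cells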 (primary screen)
# Cell system: monkey MA104 kidney cells
# Knock-down reagent: siRNA pool against human genes, 50 nM
# Time to read-out: 48 h knock-down before infection; read 24 h after infection
# Treatment: infection with rotavirus strain RV3 two days after transfection; infectious dose for this stage not given
# Read-out: 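Rotavirus antigen per well by fluorescent immunoassay, normalised to non-targeting control wells on each plate and given as a standard z-score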
# Scale: z-score vs non-targeting control: higher = more rotavirus replication than with non-targeting control
# Call rule: In these data the active calls have z-score vs non-targeting control at about -1 or lower, or at about 1 or higher
# Calls: active = z-score beyond 1 either way; inactive = z-score within 1 of zero
# Shown is an unselected part of about 12,000 reagents. About 5,600 of all reagents (46%) were called active. 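Active calls cover z-scores past 1 in both directions, so they include lowered as well as raised rotavirus replication.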 Entries without a mark were called inactive.
Target gene,z-score vs non-targeting control
IL12RB1,1.22 (active)
AKAP4,-1.36 (active)
CPT1A,2.05 (active)
ZNF429,-2.33 (active)
ANKRD20A2P,-0.186
LASP1,-0.453
ABI3BP,-0.342
ANKRD55,0.982
OR4E2,-1.25 (active)
FAM111B,0.275
CARS2,1.6 (active)
CHMP4A,-0.224
RUFY3,0.752
TMEM207,-1.35 (active)
ETV1,-0.773
SPRR1A,-0.899
DNAJC25,-1.15 (active)
GAGE2C,0.999
EFNB1,-1.99 (active)
ZUP1,-0.366
NSUN2,-0.531
SUPT7L,-0.982
MS4A1,0.516
TTF2,-1.26 (active)
PTDSS1,1.76 (active)
RAB18,-0.536
GIPC2,0.193
DCAF8L1,-1.12 (active)
RPL13,-0.721
BCKDHB,-2.35 (active)
MYBPC2,-1.1 (active)
SHANK1,0.216
RFT1,-0.705
SEMA6B,-0.192
PPOX,-0.886
CCT6A,1.43 (active)
PATE2,1.79 (active)
PPHLN1,-2.19 (active)
ORAI2,-2.58 (active)
PLEKHB1,2.23 (active)
CARD17P,-0.223
RBMXL2,-0.505
KLHDC7A,-1.18 (active)
CABYR,0.29
TCHHL1,-0.792
GLT8D1,-0.502
PURG,2.24 (active)
SRSF12,0.794
LORICRIN,-0.208
MAGEA1,-0.65
ATP10D,0.808
RASIP1,-0.055
BNIP3,-0.914
SELENOM,3.57 (active)
RIC3,-0.721
OR5AN1,0.774
SV2B,0.672
IFI44,-0.638
KCTD18,-1.22 (active)
PPP6R2,0.194
FSTL1,-0.933
ORC5,0.413
WNT10A,-0.505
HACD3,0.0972
ZNF747,-1.81 (active)
OTC,-1.38 (active)
S100A7,-1.17 (active)
ZNF461,2.09 (active)
ALDH1B1,0.647
PPP5C,3.76 (active)
CTNS,-0.528
CCDC28A,-1.25 (active)
FANCL,0.493
PTH1R,-0.53
TCEAL9,2.04 (active)
PLSCR2,-0.738
TMEM126B,0.185
RNASE1,-1.59 (active)
IFNA13,0.421
TMEM39B,-0.571
DSG1,-0.209
PDE9A,-2.58 (active)
SOX18,0.957
MAPK8IP3,-1.07 (active)
VSTM4,1.1 (active)
IQSEC1,-0.775
MALT1,-0.76
HES4,-1.34 (active)
MINDY2,-1.15 (active)
NADK2,0.784
VPS26B,1.12 (active)
LGALS12,1.2 (active)
HMGCS1,0.59
OTX2,1.59 (active)
LITAF,1.48 (active)
GSDMB,0.419
KLRC1,-2.16 (active)
FSTL4,0.628
IGFBP1,0.785
DICER1,-0.218
ANGPTL6,0.96
OXTR,0.924
RGMB,0.0488
SMCO4,-1.41 (active)
MEI1,-0.91
MANSC1,1.58 (active)
SMPDL3B,-1.26 (active)
NR1I2,0.836
ZNF670,1.24 (active)
RBM34,1.25 (active)
STMN1,-2.06 (active)
SENP2,-0.662
ARTN,-0.105
OGFOD1,1.31 (active)
HSPBAP1,0.734
CYB561D1,0.133
SPAG1,-0.53
CNTN3,-1.14 (active)
THSD4,-1.58 (active)
DEFB124,-5.68 (active)
SPATA19,0.292
CALCR,-0.642
LMBRD1,1.31 (active)
CTCFL,-0.18
ZNF75A,-0.184
CYP7A1,-0.946
SLX1A,0.686
FER1L6,0.68
CTBP1,2.23 (active)
PAN2,-0.964
ARV1,0.112
SRSF1,-0.0688
PPP1R9A,-0.423
SDHAF3,0.243
TMEM119,-1.22 (active)
SIKE1,1.19 (active)
TCF12,-1.87 (active)
KRT15,0.165
PER1,-1.15 (active)
POU2F1,1.32 (active)

9 of these entries, set out differently:
WNT10A | z-score vs non-targeting control: -0.505
HACD3 | z-score vs non-targeting control: 0.0972
ZNF747 | z-score vs non-targeting control: -1.81 (active)
OTC | z-score vs non-targeting control: -1.38 (active)
S100A7 | z-score vs non-targeting control: -1.17 (active)
ZNF461 | z-score vs non-targeting control: 2.09 (active)
ALDH1B1 | z-score vs non-targeting control: 0.647
PPP5C | z-score vs non-targeting control: 3.76 (active)
CTNS | z-score vs non-targeting control: -0.528
